From ChEMBL document CHEMBL1158261, “Cercophorins A-C: novel antifungal and cytotoxic metabolites from the coprophilous fungus Cercophora areolata” (1996)

System: Candida albicans
Experiment: Antifungal activity against Candida albicans ATCC 14053 at 200 ug/disk

CC1=C[C@H]2O[C@@H]3C[C@H]4OC(=O)/C=C\C=C\[C@H]([C@@H](C)O)OCC/C(C)=C/C(=O)OC[C@@]2(CC1)[C@]4(C)[C@]31CO1
inhibition zone (IZ): 29 mm
